According to US20220000860A1, “COMPOUNDS, COMPOSITIONS, AND METHODS FOR TREATING HUMAN IMMUNODEFICIENCY VIRUS” (OYAGEN, INC., priority 2017, published 2022):

Legend:
Type in all cases: cell-based, HIV
00KE_KER2008 (Subtype A) = experiment: PBMC Acute Infection, 00KE_KER2008; details: for SI50: SI50=CC50/EC50, isolate 00KE-KER2008, subtype A; for SI90: SI90=CC90/EC90, isolate 00KE-KER2008, subtype A
Method: (§1) PHA-stimulated cells from at least two normal donors were pooled (i.e. mixed together), diluted in fresh medium to a final concentration of 1×10^6 cells/mL, and plated in the interior wells of a 96-well round bottom microplate at 50 μL/well (5×10^4 cells/well). Pooling of mononuclear cells from more than one donor was used to minimize the variability observed between individual donors in quantitative and qualitative differences in HIV infection and overall response to the PHA and IL-2 of primary lymphocyte populations. Each plate contained virus control wells (cells plus virus) and experimental wells (drug plus cells plus virus) of either 00KE_KER2008 (Subtype A), IIIB (Subtype B), or 98US_MSC5016 (Subtype C). Test drug dilutions were prepared at a 2×concentration and 100 μL of each concentration was placed in appropriate wells. Fifty μL of a predetermined dilution of virus stock was placed in each test well (final MOI≅0.1). After this period, cell-free supernatant samples were collected for analysis of reverse transcriptase (RT) activity with an RT assay. […] In the Table below SI50=CC50/EC50 and SI90=CC90/EC90.

IIIB (Subtype B) = experiment: PBMC Acute Infection, IIIB; details: for SI50: SI50=CC50/EC50, isolate IIIB; for SI90: SI90=CC90/EC90, isolate IIIB
Method: as §1

98US_MSC5016 (Subtype C) = experiment: PBMC Acute Infection, 98US_MSC5016; details: for SI50: SI50=CC50/EC50, isolate 98US_MSC5016, subtype C; for SI90: SI90=CC90/EC90, isolate 98US_MSC5016, subtype C
Method: as §1

Row | Compound | SI50 (00KE_KER2008 (Subtype A)) | SI90 (00KE_KER2008 (Subtype A)) | SI50 (IIIB (Subtype B)) | SI90 (IIIB (Subtype B)) | SI50 (98US_MSC5016 (Subtype C)) | SI90 (98US_MSC5016 (Subtype C))
1 | CCc1c2c(nc3ccc(OC(=O)N4CCC(N5CCCCC5)CC4)cc13)-c1cc3c(c(=O)n1C2)CNC(=O)[C@]3(O)CC [Irino-L, (S)-4,11-diethyl-4-hydroxy-3,14-dioxo-1,2,3,4,12,14-hexahydroquinolino[2′,3′:3,4]pyrrolo[1,2-b][2,7]naphthyridin-9-yl [1,4′-bipiperidine]-1′-carboxylate] | 8 | 11 | 8 | 10 | 10 | 12
2 | CC[C@@]1(O)C(=O)NCc2c1cc1n(c2=O)Cc2cc3c(N)cccc3nc2-1 [Compound O5-9A, (S)-10-Amino-4-ethyl-4-hydroxy-1,2-dihydroquinolino[2′,3′:3,4]pyrrolo[1,2-b][2,7]naphthyridine-3,14(4H,12H)-dione] | 185 | >435 | 68 | >318 | 154 | >455
3 | CCc1c2c(nc3ccc(O)cc13)-c1cc3c(c(=O)n1C2)CNC(=O)[C@]3(O)CC [SN38-L, (S)-4,11-Diethyl-4,9-dihydroxy-1,2-dihydroquinolino[2′,3′:3,4]pyrrolo[1,2-b][2,7]naphthyridine-3,14(4H,12H)-dione] | 315 | 1824 | 464 | 982 | 315 | 1766
4 | CCc1c2c(nc3ccc(N)cc13)-c1cc3c(c(=O)n1C2)CNC(=O)[C@]3(O)CC [Compound O5-SN, (S)-9-Amino-4,11-diethyl-4-hydroxy-1,2-dihydroquinolino[2′,3′:3,4]pyrrolo[1,2-b][2,7]naphthyridine-3,14(4H,12H)-dione] | 422 | >5618 | 753 | >4020 | 457 | >5000
